According to patent publication US9907860B2, “Conjugated molecules comprising a peptide derived from the CD4 receptor coupled to an anionic polypeptide for the treatment of AIDS” (INSTITUT PASTEUR, priority 2014, dated 2018):

test: Cytotoxic activity, WST-1 cell proliferation assay; type: cell-based; conditions: human; WST-1, 48 h
Procedure: Cytotoxicity was determined using the water-soluble tetrazolium-1 (WST-1) cell proliferation assay, which is based on the cleavage of the tetrazolium salt WST-1 to a formazan dye by cellular dehydrogenases. Because this bioreduction is dependent on the glycolytic production of NAD(P)H in viable cells, the amount of formazan dye formed is correlated directly to the number of viable cells in a culture. Quantification is performed by measuring absorbance at 450 nm in a multiwell plate reader. An amount of 10^4 cells was plated per well in a 96-well plate, and a serial dilution of compound was added. Forty eight hours later, cell proliferation reagent was added and cell viability was measured compared to untreated control cultures. Cell viability was plotted against the compound concentration, and nonlinear regression analysis was performed to evaluate the 50% cytotoxic concentration (CC50).
The miniCD4 conjugates were then evaluated for their cytotoxic activity according to the protocol described above. All cytotoxic results are reported in the table below in the form of CC50 values (nM).

With `CC(C)C[C@@H]1NC(=O)CNC(=O)[C@H](CC(C)C)NC(=O)[C@H](CO)NC(=O)[C@H](CCCCN)NC(=O)[C@@H]2CSSC[C@@H](C(=O)N[C@H](C(N)=O)C(C)C)NC(=O)[C@H](C)NC(=O)[C@@H]3CSSC[C@H](NC(=O)[C@H](Cc4ccccc4)NC(=O)[C@H](Cc4cnc[nH]4)NC(=O)[C@H](CC(C)C)NC(=O)[C@H](CC(N)=O)NC(=O)CCSSC[C@H](NC(=O)[C@H](CCCNC(=N)N)NC(=O)CNC(=O)[C@H](CC(C)C)NC1=O)C(=O)N[C@@H](C)C(=O)N1CCC[C@@H]1C(=O)N[C@@H]([C@@H](C)O)C(=O)N[C@@H](Cc1ccc(OCC4CCCCC4)cc1)C(=O)N3)C(=O)N[C@@H](CCC(N)=O)C(=O)N[C@@H](CC(C)C)C(=O)N[C@@H](CCCNC(=N)N)C(=O)N2` [M48U1] as the compound, how does the CC50 at 48 h read?
Its CC50 at 48 h is 12.9 µM.

For `CC(C)C[C@@H]1NC(=O)CNC(=O)[C@H](CC(C)C)NC(=O)[C@H](CO)NC(=O)[C@H](CO)NC(=O)[C@@H]2CSSC[C@@H](C(=O)N[C@H](C(N)=O)C(C)C)NC(=O)[C@H](C)NC(=O)[C@@H]3CSSC[C@H](NC(=O)[C@H](CCCCN)NC(=O)[C@H](Cc4c[nH]cn4)NC(=O)[C@H](CC(C)C)NC(=O)[C@H](CC(N)=O)NC(=O)CCSSC[C@H](NC(=O)[C@H](CCCNC(=N)N)NC(=O)CNC(=O)[C@H](CC(C)C)NC1=O)C(=O)N[C@@H](C)C(=O)NCC(=O)N[C@@H](CO)C(=O)N[C@@H](Cc1ccc(-c4ccccc4)cc1)C(=O)N3)C(=O)N[C@@H](CCC(N)=O)C(=O)N[C@@H](CC(C)C)C(=O)N[C@@H](CCCNC(=N)N)C(=O)N2` [mCD4.1], which CC50 at 48 h is on record?
Its CC50 at 48 h is 45.5 µM.

Which CC50 at 48 h does the source give for `CC(C)C[C@@H]1NC(=O)CNC(=O)[C@H](CC(C)C)NC(=O)[C@H](CO)NC(=O)[C@H](CO)NC(=O)[C@@H]2CSSC[C@@H](C(=O)N[C@H](C(N)=O)C(C)C)NC(=O)[C@H](C)NC(=O)[C@@H]3CSSC[C@H](NC(=O)[C@H](CCCCN)NC(=O)[C@H](Cc4c[nH]cn4)NC(=O)[C@H](CC(C)C)NC(=O)[C@H](CC(N)=O)NC(=O)CCSSC[C@H](NC(=O)[C@H](CCCNC(=N)N)NC(=O)CNC(=O)[C@H](CC(C)C)NC1=O)C(=O)N[C@@H](C)C(=O)N1CCC[C@@H]1C(=O)N[C@@H]([C@@H](C)O)C(=O)N[C@@H](Cc1ccc(OCC4CCCCC4)cc1)C(=O)N3)C(=O)N[C@@H](CCC(N)=O)C(=O)N[C@@H](CC(C)C)C(=O)N[C@@H](CCCNC(=N)N)C(=O)N2` [mCD4.2] here?
The CC50 at 48 h was 24 µM.

Which CC50 at 48 h does the source give for `CC(C)C[C@@H]1NC(=O)CNC(=O)[C@H](CC(C)C)NC(=O)[C@H](CO)NC(=O)[C@H](CCCNC(=N)N)NC(=O)[C@@H]2CSSC[C@@H](C(=O)N[C@H](C(N)=O)C(C)C)NC(=O)[C@H](C)NC(=O)[C@@H]3CSSC[C@H](NC(=O)[C@H](CCCCN)NC(=O)[C@H](Cc4c[nH]cn4)NC(=O)[C@H](CC(C)C)NC(=O)[C@H](CC(N)=O)NC(=O)CCSSC[C@H](NC(=O)[C@H](CCCNC(=N)N)NC(=O)CNC(=O)[C@H](CC(C)C)NC1=O)C(=O)N[C@@H](C)C(=O)N1CCC[C@@H]1C(=O)N[C@@H]([C@@H](C)O)C(=O)N[C@@H](Cc1ccc(OCC4CCCCC4)cc1)C(=O)N3)C(=O)N[C@@H](CCC(N)=O)C(=O)N[C@@H](CC(C)C)C(=O)N[C@@H](CCCNC(=N)N)C(=O)N2` [mCD4.3] here?
The CC50 at 48 h was 15.5 µM.
